The subject of assay [1] is HCV genotype 1b replicon. As to the kind of experiment: HCV replicon assay, genotype 1b replicon EC50. The method, then: Measuring Compound Inhibitory Potency (Genotype 1b Replicon EC50 (nM))
Measurement of inhibition by compounds was performed using the HCV replicon system. Several different replicons encoding different HCV genotypes or mutations were used. In addition, potency measurements were made using different formats of the replicon assay, including different ways of measurements and different plating formats. See Jan M. Vrolijk et al., A replicons-based bioassay for the measurement of interferons in patients with chronic hepatitis C, 110 J. VIROLOGICAL METHODS 201 (2003); Steven S. Carroll et al., Inhibition of Hepatitis C Virus RNA Replication by 2′-Modified Nucleoside Analogs, 278(14) J. BIOLOGICAL CHEMISTRY 11979 (2003). However, the underlying principles are common to all of these determinations, and are outlined below.
Stable neomycin phosphotransferase encoding replicon-harboring cell lines were used, so all cell lines were maintained under G418 selection prior to the assay. In some cases the cell lines encoded a luciferase:Neo^r fusion and could be assayed either directly by determination of RNA copy number, or indirectly through measurement of the luciferase activity.
To initiate an assay, replicon cells were plated in the presence of a dilution series of test compound in the absence of G418. Typically, the assays were performed in a 96-well plate format for manual operation, or a 384 well plate in an automated assay. Replicon cells and compound were incubated for 24-48 hours, depending on the assay. At the end of the assay, cells are washed free of media and compound and then lysed. For direct quantitation, RNA levels were measured by ^32P-probe hybridization and protection, or in a TAQMAN based assay and normalized to cellular cyclophilin A RNA levels. In some cases, luciferase activity was measured using a conventional luciferase assay. In all cases EC50 determinations were calculated as a percent of a DMSO control by fitting the data to a four parameter fit function.

Chains of the proteins cited; added tags and fusions are not shown. Residues count along the entry.
UniProt P26663, 1027-1657 limits assumed: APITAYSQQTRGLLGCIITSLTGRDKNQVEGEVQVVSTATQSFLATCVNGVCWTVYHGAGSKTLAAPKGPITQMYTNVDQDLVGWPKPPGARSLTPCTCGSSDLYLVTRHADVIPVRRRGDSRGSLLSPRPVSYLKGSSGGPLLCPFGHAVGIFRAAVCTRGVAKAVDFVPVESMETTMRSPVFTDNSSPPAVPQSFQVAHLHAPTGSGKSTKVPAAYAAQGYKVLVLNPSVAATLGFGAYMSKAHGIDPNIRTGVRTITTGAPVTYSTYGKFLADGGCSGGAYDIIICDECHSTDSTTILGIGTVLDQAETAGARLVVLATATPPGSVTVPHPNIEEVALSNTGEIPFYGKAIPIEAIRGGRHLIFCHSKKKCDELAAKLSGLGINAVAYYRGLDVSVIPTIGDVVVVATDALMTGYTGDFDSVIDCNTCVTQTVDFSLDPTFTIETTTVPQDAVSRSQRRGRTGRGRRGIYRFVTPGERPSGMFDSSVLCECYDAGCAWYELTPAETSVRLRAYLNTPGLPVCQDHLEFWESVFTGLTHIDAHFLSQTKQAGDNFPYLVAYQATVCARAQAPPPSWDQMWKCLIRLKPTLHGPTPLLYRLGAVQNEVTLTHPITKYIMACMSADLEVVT
UniProt P26663, 1658-1711 partner limits assumed: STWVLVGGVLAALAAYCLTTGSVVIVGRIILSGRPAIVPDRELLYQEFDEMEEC

Assay [2] concerns the target HCV NS3/4A protease genotype 1b (Hepatitis C virus genotype 1b, UniProt P26663). As to the kind of experiment: HCV NS3/4A protease time-resolved fluorescence (TRF) assay, Ki against genotype 1b. Type of assay: biochemical. As to conditions: read-out: IC50 [gt-1b], NS3/4A genotype 1b, enzyme 0.2 nM. The method, then:
Measuring NS3/4A Inhibitory Activity (Ki) Against Genotype 1b, Against A156T Mutants and Against Genotype 3a
One assay for measuring inhibitory activity is HCV NS3 protease time-resolved fluorescence (TRF) assay as described below and in Mao et al., Anal. Biochem. 373:1-8, 2008 and International Patent Application Publication WO 2006/102087. A NS3 protease assay can be performed, for example, in a final volume of 20 μl assay buffer containing 50 mM HEPES, pH 7.5, 150 mM NaCl, 15% glycerol, 0.15% TRITON X-100, 10 mM DTT, and 0.1% PEG 8000. NS3 and NS4A protease is pre-incubated with various concentrations of inhibitors in DMSO for 30 min. The reaction is initiated by adding the TRF peptide substrate (final concentration 25 nM). NS3 mediated hydrolysis of the substrate was run for 2.5 hours at room temperature. Product fluorescence is detected using A Pherastar Plus plate reader (BMG) or Envision (Perkin Elmer Life and Analytical Sciences with excitation at 340 nm and emission at 615 nm using the appropriate delay time optimized for the europium fluorescence probe. Testing concentrations of different enzyme forms are selected to result in a signal to background ratio (S/B) of 10-30. IC50 values are derived using a standard four-parameter fit to the data. Ki values are derived from IC50 values using the following formula, IC50=Ki(1+[S]/KM), Eqn (1), where [S] is the concentration of substrate peptide in the reaction and KM is the Michaelis constant. See P. Gallinari et al., 38 BIOCHEM. 5620-32 (1999); P. Gallinari et al., 72 J. VIROL. 6758-69 (1998); M. Taliani et al., 240 ANAL. BIOCHEM. 60-67 (1996); Mao et al., Analytical Biochemistry 373: 1-8, 2008.
The assay described above was run against genotype 1b at a concentration of 0.2 nM, against A156T mutant strains at a concentration of 0.4 nM, and against genotype 3a at a concentration of 0.025 nM.

Where two headings read alike, the source gives them in different places.

With `Cc1nc2ccc(O)cc2c2c1O[C@]1(CC2)C[C@H]2C(=O)N[C@]3(C(=O)NS(=O)(=O)C4(C)CC4)C[C@H]3/C=C\CCCCC[C@H](NC(=O)OC(C)(C)C)C(=O)N2C1`, the EC50 in assay [1] (read-out: EC50 [gt-1b]) is 47.6 nM. Further, in assay [2], the IC50 was 0.006 nM.

Regarding `COc1ccc2nc(C)c3c(c2c1)CC[C@]1(C[C@H]2C(=O)N[C@]4(C(=O)NS(=O)(=O)C5(C)CC5)C[C@H]4/C=C\CCCCC[C@H](NC(=O)OC4CCCC4)C(=O)N2C1)O3`, the EC50 in assay [1] (read-out: EC50 [gt-1b], K+ salt, tested form: K salt) is 1.03 nM. Besides, the concentration for half-maximal inhibition (IC50) in assay [2] (K+ salt, tested form: K salt) was found to be 0.004 nM.

With `COc1ccc2nc(C(C)C)c3c(c2c1)CC[C@]1(C[C@H]2C(=O)N[C@]4(C(=O)NS(=O)(=O)C5(C)CC5)C[C@H]4/C=C\CCCCC[C@H](NC(=O)OCC(C)(C)C)C(=O)N2C1)O3`, the EC50 in assay [1] (read-out: EC50 [gt-1b]) is 4.25 nM. Besides, the IC50 in assay [2] was 0.016 nM.

`CC(C)(C)OC(=O)N[C@H]1CCCCC/C=C\[C@@H]2C[C@@]2(C(=O)NS(=O)(=O)C2(C)CC2)NC(=O)[C@@H]2C[C@]3(CCc4c(c(CO)nc5ccccc45)O3)CN2C1=O`: the EC50 in assay [1] (read-out: EC50 [gt-1b]) was found to be 11.3 nM. In addition, the concentration for half-maximal inhibition (IC50) in assay [2] amounted to 0.036 nM.

The values above are taken from patent publication US8987195B2 (priority 2012, dated 2015).
